## Share of PSTVd loop 15 variants by leaf site

Region: loop 15 of PSTVd (intermediate strain), upper and lower strand joined, each 5' to 3', the first 7 letters being the upper strand, closing pairs included. Wild type: GGAAACCGCUACUAC. Varied positions (N): GGAAACCGNNNNNNC.

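A pool of all variants was put on leaves of three Nicotiana benthamiana plants. Samples came from the inoculated region at 5 days, the leaf margin at 10 and upper systemic leaves at 12.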

Numbers give reads per thousand; 0 = not seen among the reads, higher = more abundant.
Each site shows the three plants.
"Pool" is the share in the plasmid pool used as inoculum, on the same scale.
The inoculated region was read from the minus strand, the other sites from the plus strand.
IR is the inoculated region, LM the leaf margin, Sys the systemic leaves.
For reference, wild type rose from 33.9 per thousand in the pool to 202, 200, 159 (inoculated region), 724, 746, 710 (leaf margin) and 856, 883, 880 (systemic leaves).
Sequences that differ at fixed positions probably stem from PCR or sequencing errors, and defective variants can be carried along by functional ones.
Samples held 43,870 to 66,106 reads, so the smallest values rest on one or two reads.

* GGAAACCGCAACAUC (pool 0.288): IR 0.0819 / 0.129 / 0.0381; LM 0.0162 / 0.0223 / 0; Sys 0 / 0 / 0
* GGAAACCGUAGUUCC (pool 0.144): IR 0.0983 / 0.0964 / 0.0381; LM 0 / 0 / 0; Sys 0 / 0 / 0
* GGAAACCGCCAGCUC (pool 0.128): IR 0.360 / 0.337 / 0.133; LM 0.210 / 0.0445 / 0.0401; Sys 0 / 0 / 0
* GGAAACCGCUAGACC (pool 0.160): IR 0.147 / 0.0321 / 0.152; LM 0.0162 / 0 / 0; Sys 0 / 0 / 0
* GGAAACCGAUUGUAC (pool 0.224): IR 0.459 / 0.273 / 0.324; LM 0.113 / 0.134 / 0.100; Sys 0.0161 / 0.0303 / 0.137
* GGAAACCGACUUAUC (pool 0.160): IR 0.229 / 0.289 / 0.190; LM 0 / 0 / 0.0801; Sys 0.0161 / 0 / 0
* GGAAACCGUUCCGAC (pool 0.432): IR 0.115 / 0.129 / 0.0571; LM 0.0323 / 0 / 0.0200; Sys 0 / 0 / 0
* GGAAACCGCUGAAAC (pool 0.256): IR 0.0819 / 0.0803 / 0.0762; LM 0 / 0.0223 / 0; Sys 0 / 0 / 0
* GGAAACCGGCGAGGC (pool 0.208): IR 0.164 / 0.112 / 0.0381; LM 0 / 0 / 0.0200; Sys 0 / 0 / 0
* GGAAACCGGCGCCUC (pool 0.272): IR 0.131 / 0.0803 / 0.114; LM 0 / 0.0223 / 0; Sys 0 / 0 / 0
* GGAAACCGUCUUCUC (pool 0.192): IR 0.164 / 0.193 / 0.228; LM 0.0323 / 0.0223 / 0; Sys 0.0322 / 0 / 0
* GGAAACCGGCGCCAC (pool 0.192): IR 0.0983 / 0.0964 / 0.171; LM 0.0323 / 0.0223 / 0.0200; Sys 0.0161 / 0 / 0
* GGAAACCGGGAACUC (pool 0.272): IR 0.0328 / 0.112 / 0.0762; LM 0 / 0 / 0.0200; Sys 0 / 0 / 0
* GGAAACCGCCUUCAC (pool 0.368): IR 0.115 / 0.0161 / 0.0381; LM 0.0162 / 0 / 0.0401; Sys 0 / 0 / 0
* GGAAACCGAUUUCGC (pool 0.224): IR 0.115 / 0.129 / 0.0762; LM 0.0162 / 0 / 0; Sys 0.0161 / 0 / 0
* GGAAACCGCCAAUUC (pool 0.208): IR 0.360 / 0.466 / 0.362; LM 0.129 / 0.0891 / 0.120; Sys 0.0644 / 0.0756 / 0.0684
* GGAAACCGCACUCGC (pool 0.224): IR 0.0819 / 0.112 / 0.114; LM 0 / 0 / 0; Sys 0 / 0 / 0
* GGAAACCGCGAGAAC (pool 0.224): IR 0.278 / 0.386 / 0.400; LM 0.113 / 0.0223 / 0.180; Sys 0.0322 / 0.0151 / 0.0228
* GGAAACCGCGGUAUC (pool 0.192): IR 0.229 / 0.145 / 0.152; LM 0 / 0 / 0.0401; Sys 0.0161 / 0 / 0
* GGAAACCGGUUGUCC (pool 0.144): IR 0.0655 / 0.0964 / 0.0952; LM 0 / 0 / 0; Sys 0.0161 / 0 / 0

Extract of 2 entries:

GGAAACCGACUUAUC (pool 0.160) gave IR 0.229 / 0.289 / 0.190; LM 0 / 0 / 0.0801; Sys 0.0161 / 0 / 0.
GGAAACCGCCAGCUC (pool 0.128) gave IR 0.360 / 0.337 / 0.133; LM 0.210 / 0.0445 / 0.0401; Sys 0 / 0 / 0.

Source: Wu et al. 2024 (doi:10.1371/journal.ppat.1012142), supplementary data.